Pooled drug test results. Numbers come from NIAID ChemDB, via PubChem.

Shared fields: host cell toxicity; cell line: MT-2; measure: CC50

Rows are shuffled and stem from different studies. An empty or dashed field is not shown. CCn is the concentration with n% toxicity to the cells. Two numbers with a dash give a range or band.

SMILES,read by,value
Cc1ccc(C)c(C(C)S(=O)(=O)c2ccc(C)c[n+]2[O-])c1,,34 µg/mL
N#Cc1ccc(CSCC2(CSCc3ccc(C#N)cc3)NC(=O)NC2=O)cc1,,>8 µM
Cc1cc(C(F)(F)F)nn1CC(=O)N[C@@H](Cc1ccccc1)C(=O)N(C)c1ccc2c(c1)OCO2,ATP,>20 µM
C[Si](O)(O[Si](C)(CCCn1cnc2c(N)ncnc21)c1ccccc1)c1ccccc1,,>100 µM
CC(C)C[C@H](N)C(=O)N[C@@H](Cc1ccccc1)C(=O)N[C@H](C(=O)O)C(C)C,,1.58 µg/mL
C[Si](O)(CCCn1cnc2c(N)ncnc21)c1ccccc1,,12 µM
O=C1NC(=O)C(CSc2ccncc2)(CSc2ccncc2)N1,,>100 µM
CCOC(=O)Nc1[nH]c2cccc(Br)c2c1C(O)(C(C)C)C(F)(F)F,ATP,33.2 µM
Cc1c(CC(=O)O)c(C(C)C)nn1CC(=O)N[C@@H](Cc1ccccc1)C(=O)N(C)c1ccc2c(c1)OCO2,ATP,>20 µM
O=C1NC(=O)C(CSCc2cccc3ccccc23)(CSCc2cccc3ccccc23)N1,,>100 µM
Cc1c(CCO)c(CC(C)C)nn1CC(=O)N[C@@H](Cc1ccccc1)C(=O)N(C)c1ccc2c(c1)OCO2,ATP,>20 µM
C=CCC(O)(c1c(NC(=O)OCC)[nH]c2ccc(Cl)cc12)C(F)(F)F,ATP,54.9 µM
Cc1cn(CCC[Si](C)(O)c2ccccc2)c(=O)[nH]c1=O,,50 µM
CCC(OCCc1c(C2CC2)n[nH]c1C)C(=O)N[C@@H](Cc1ccccc1)C(=O)N(C)c1ccc2c(c1)OCO2,ATP,>20 µM
O=C1O/C(=C\c2ccccc2Cl)c2cc(Cl)c(Cl)cc21,propidium iodide,>153 µM
COc1ccc(CSCC2(CSCc3ccc(OC)cc3)NC(=O)NC2=O)cc1,,>6 µM
Clc1cccc(Cl)c1Cc1nnc(Nc2ccc(COCc3ccccc3)cc2)o1,MTT,81 µM
O=P(CCP(c1ccccc1)c1ccccc1)(c1ccccc1)c1ccccc1,,5.97 µg/mL
CCOc1ccc2c(=O)n(-c3ccc(Cl)c4c(NS(C)(=O)=O)nn(C)c34)c(C(Cc3cc(F)cc(F)c3)NC(=O)Cn3nc(C(F)F)c4c3C(F)(F)C3CC43)nc2n1,XTT,>10 µM
CN(c1ccc(C#N)cc1)c1nnc(Cc2c(Cl)cccc2Cl)o1,MTT,67 µM
CSCC[C@H](N)C(=O)N[C@@H](CC(C)C)C(=O)N[C@@H](Cc1ccccc1)C(=O)N[C@H](C(=O)N[C@@H](Cc1ccccc1)C(=O)N1CCC[C@H]1C(=O)N[C@@H](CC(N)=O)C(=O)O)C(C)C,,57.34 µg/mL
Cc1cn([C@H]2C=C[C@@](C)(CO)O2)c(=O)[nH]c1=O,,>100 µM
Clc1ccc(Nc2nnc(Nc3c(Cl)cccc3Cl)o2)cc1,MTT,>100 µM
Cc1ccc(NC(=O)CN2C(=O)S/C(=C\c3ccc(-c4cc(C(=O)O)ccc4C)o3)C2=O)cc1C,XTT,>326.4 µM
COc1ccc(/C=C2\OC(=O)c3ccccc32)cc1,propidium iodide,>50 µM
CC(=O)O[C@H]1CC[C@H](O)CC[C@@H](C)/C=C/[C@@]2(C)CC[C@@H](C(C)(C)OC(C)=O)[C@H]12,MTT,1345–1456 µM
CSCC[C@H](N)C(=O)N[C@@H](CC(C)C)C(=O)N[C@@H](Cc1ccccc1)C(=O)N[C@H](C(=O)N[C@@H](Cc1ccccc1)C(=O)N1CCC[C@H]1C(=O)O)C(C)C,,1.77 µg/mL
CN(c1nnc(Nc2ccc(C#N)cc2)o1)c1c(Cl)cccc1Cl,MTT,>100 µM
Cc1cc2cc(C#N)cn2c(C)c1Nc1ccnc(Nc2ccc(C#N)cc2)n1,MTT,8.5 µM
CC(=O)O[C@H]1CC[C@@H](O)CC[C@@H](C)/C=C/[C@@]2(C)CC[C@@H](C(C)(C)OC(C)=O)[C@H]12,MTT,1345–1456 µM
Cc1ccc2c(c1)/C(=C/c1ccccc1Cl)OC2=O,propidium iodide,>185 µM
C=C[C@@]1(CO)C=C[C@H](n2cc(C)c(=O)[nH]c2=O)O1,,>100 µM
Cc1ccc(C)c(CS(=O)(=O)c2ccccn2)c1,,28 µg/mL
COc1ccccc1N1C(=O)S/C(=C\c2ccc(-c3cccc(C(=O)O)c3)o2)C1=O,XTT,56.2 µM
CCOC(=O)Nc1[nH]c2ccc(Cl)cc2c1C(=O)C(F)(F)F,ATP,>200 µM
COC(=O)c1ccc(CSCC2(CSCc3ccc(C(=O)OC)cc3)NC(=O)NC2=O)cc1,,>10 µM
CCCCC(O)(c1c(NC(=O)OCC)[nH]c2cc(Cl)cc(Cl)c12)C(F)(F)F,ATP,85.1 µM
Clc1ccc(Nc2nnc(Nc3c(Cl)cccc3Cl)o2)cc1Cl,MTT,62 µM
COc1ccc(N2C(=O)/C(=C/c3ccc(-c4ccc(Cl)c(C(=O)O)c4)o3)SC2=S)cc1,XTT,>339.2 µM
C[Si](C)(CCCSc1nc2cc(Cl)ccc2s1)O[Si](C)(C)CCCSc1nc2cc(Cl)ccc2s1,,24 µM
COc1ccc(Cc2n[nH]c(=O)c3cc(Cl)c(Cl)cc23)cc1,propidium iodide,>149 µM
O=C1NC(=O)C(CSCc2cccnc2)(CSCc2cccnc2)N1,,>100 µM
Cc1ccc(N2C(=O)/C(=C/c3ccc(-c4ccc(Cl)c(C(=O)O)c4)o3)SC2=S)c(C)c1,XTT,29.5 µM
CSc1ccc(Cc2n[nH]c(=O)c3ccccc23)cc1,propidium iodide,>177 µM
O=C1NC(=O)C(CSCc2ccncc2)(CSCc2ccncc2)N1,,>45 µM
CC(C)CCC[C@@H](C)[C@H]1CC[C@H]2[C@@H]3CC[C@H]4C[C@@H](CCC=C(c5cc(Cl)c(O)c(C(=O)O)c5)c5cc(Cl)c(O)c(C(=O)O)c5)CC[C@]4(C)[C@H]3CC[C@]12C,,200 µM
CCOC(=O)Nc1[nH]c2cc(Cl)cc(Cl)c2c1C(O)(C(C)C)C(F)(F)F,ATP,28.3 µM
O=C(N/C(C(=O)N1CCCCC1)=C(/Cl)c1ccccc1)c1ccccc1,,>81 µM
O=C1O/C(=C\c2ccccc2)c2cc(Cl)c(Cl)cc21,propidium iodide,>171 µM
Cc1ccc(C(C)S(=O)(=O)c2c(C)ccc[n+]2[O-])c(C)c1,,>100 µg/mL
CCCCC(O)(c1c(NC(=O)OCC)[nH]c2cccc(Cl)c12)C(F)(F)F,ATP,58 µM
Cc1ccc(C)c(C(Cl)S(=O)(=O)c2cc(C)cc[n+]2[O-])c1,,>4 µg/mL
Cc1cc(C#N)cc(C)c1Nc1nnc(Nc2ccc(Cl)cc2)o1,MTT,100 µM
C[Si](C)(CCCn1ccnc1)O[Si](C)(C)CCCn1ccnc1,,18 µM
C=C1C(=O)OC2C1CCC(C)C1CCC(=O)C12C,luminescence,>20 µM
O=C1NC(=O)C(CSCc2ccc(C(=O)O)cc2)(CSCc2ccc(C(=O)O)cc2)N1,,>100 µM
C[Si](C)(CCCNC(=O)c1ccccc1N)O[Si](C)(C)CCCNC(=O)c1ccccc1N,,24 µM